PubChem BioAssay AID1259414 – Drosophila RNAi Screening Center – 2018
In all, the deposit lists about 24,000 reagents; this is a random part of those with a known target gene and a result. Of all reagents, about 1,210 (5%) are marked active. 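Inactive calls also include excluded dsRNAs with several or no targets, genes unexpressed in JW18, and well A1, regardless of score.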 A plus sign joins genes that one reagent is predicted to hit.

Aim: 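Fly genes that alter Wolbachia amount inside host cells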 (primary screen)
System: Drosophila JW18 cells infected with Wolbachia
Knock-down reagent: long dsRNA against Drosophila genes, 0.25 µg dsRNA per well of a 384-well plate
Time to read-out: 5 days
Treatment: cells persistently infected with Wolbachia before knock-down; no added drug
Detection: 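Imaged fluorescence in situ signal for Wolbachia 23S rRNA per DAPI-counted host cell, given as a robust z-score within each plate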
Scale: Wolbachia per cell robust z: higher = more Wolbachia per host cell than the plate typical
Hit rule: 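Active if absolute robust z reaches 1.5 in two or more of three replicates, leaving out multi- or no-target dsRNAs, genes unexpressed in JW18 and A1 wells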

target	amplicon	Wolbachia per cell robust z, rep 1	Wolbachia per cell robust z, rep 2	Wolbachia per cell robust z, rep 3	call
RhoGEF64C (GeneID 38578)	DRSC08318	-0.306	0.0762	-0.76	inactive
RhoGEF64C (GeneID 38578)	DRSC08319	0.887	-0.224	0.146	inactive
RhoGEF64C (GeneID 38578)	DRSC25939	0.546	0.176	0.301	inactive
CG34148 + P5CDh2	DRSC13519	0.426	1.34	0.0278	inactive
kni (GeneID 40287)	DRSC23093	0.13	0.234	0.596	inactive
kni (GeneID 40287)	DRSC29974	0.109	0.677	0.21	inactive
kni (GeneID 40287)	DRSC41376	-0.262	0.107	-1.7	inactive
CG13720 (GeneID 38557)	DRSC08329	0.438	-0.979	0.501	inactive
CG13720 (GeneID 38557)	DRSC23787	0.267	-1.41	-0.293	inactive
CG30178 (GeneID 246501)	DRSC21911	-1.41	-0.243	0.27	inactive
halo (GeneID 33334)	DRSC00705	-8.52	-1.24	0.981	inactive
halo (GeneID 33334)	DRSC27447	0.484	-0.453	-0.319	inactive
CG1236 (GeneID 40708)	DRSC12203	-0.85	0.791	-0.222	inactive
CG11808 (GeneID 36687)	DRSC06088	0.279	-0.433	-2.39	inactive
CG11808 (GeneID 36687)	DRSC27380	-5.72	1.19	0.0876	inactive
CG9896 (GeneID 37652)	DRSC03962	0.0248	0.334	0.521	inactive
CG9896 (GeneID 37652)	DRSC04594	0.56	0.607	0.658	inactive
spd-2 (GeneID 39850)	DRSC09682	-1.05	-0.59	-1.59	inactive
spd-2 (GeneID 39850)	DRSC26762	0.216	-1.72	-0.681	inactive
Polr3C (GeneID 41542)	DRSC14490	-0.602	-0.947	0.299	inactive
Polr3C (GeneID 41542)	DRSC28198	0.696	0.273	0.451	inactive
Ccdc39 (GeneID 40595)	DRSC12286	0.653	0.574	0.475	inactive
CG4598 (GeneID 34315)	DRSC02763	-0.526	0.0238	-0.673	inactive
CG6479 (GeneID 39930)	DRSC10647	0.557	0.645	-1.43	inactive
CG3483 (GeneID 37900)	DRSC04371	-0.526	-0.561	-0.487	inactive
Polr1D (GeneID 35196)	DRSC41343	1.16	0.828	-0.86	inactive
ms(3)K81 (GeneID 43232)	DRSC14746	0.412	-0.147	0.26	inactive
CG32267 (GeneID 317946)	DRSC21561	0.0154	1.02	0.401	inactive
CG32267 (GeneID 317946)	DRSC27104	0.206	-1.03	0.207	inactive
CG5885 (GeneID 34314)	DRSC02910	1.45	0.656	-6.21	inactive
CG5885 (GeneID 34314)	DRSC28761	-1.58	-3.59	-2.48	active
CG13671 (GeneID 38932)	DRSC10030	-3.01	-0.747	-0.214	inactive
lncRNA:CR33963 (GeneID 3885572)	DRSC37787	-0.866	0.609	-0.246	inactive
Nelf-E (GeneID 38982)	DRSC10567	0.675	-0.602	0.44	inactive
Zdhhc8 (GeneID 31887)	DRSC18044	0.0431	0.736	-0.705	inactive
Zdhhc8 (GeneID 31887)	DRSC18122	-0.892	0.726	0.163	inactive
CG1113 (GeneID 40629)	DRSC12163	1.55	0.869	0.661	inactive
Rab3-GAP (GeneID 34626)	DRSC02001	-0.152	-0.833	0.269	inactive
Rab3-GAP (GeneID 34626)	DRSC28519	-3.15	0.739	0.28	inactive
CG34133 (GeneID 318566)	DRSC16319	1.73	1.23	2.71	active
CG34133 (GeneID 318566)	DRSC22239	-2.3	0.783	-0.673	inactive
CG34133 (GeneID 318566)	DRSC25658	1.35	0.0576	0.969	inactive
CG34133 (GeneID 318566)	DRSC29408	-1.43	0.27	0.612	inactive
CG34217 (GeneID 5740254)	DRSC38886	-0.723	0.37	0.108	inactive
CG33109 (GeneID 326258)	DRSC16533	-1.68	-0.253	-0.581	inactive
Clc (GeneID 40221)	DRSC11116	-0.82	0.0965	-1.08	inactive
Clc (GeneID 40221)	DRSC25617	1.18	3.95	-2.08	inactive
CG11608 (GeneID 41556)	DRSC14334	-4.43	-0.0692	-0.712	inactive
Arp5 (GeneID 42173)	DRSC16350	-0.345	-0.832	-0.433	inactive
Arp5 (GeneID 42173)	DRSC28688	-1.04	-0.719	0.201	inactive
PGAP3 (GeneID 35570)	DRSC04989	-3.83	0.685	0.0766	inactive
BicC (GeneID 34946)	DRSC02005	0.384	1.28	0.779	inactive
BicC (GeneID 34946)	DRSC29676	-0.0332	-0.0877	-0.011	inactive
CG17782 (GeneID 42912)	DRSC23227	0.345	0.61	0.478	inactive
Dnaaf6 (GeneID 39598)	DRSC10473	-0.588	0.548	-1.08	inactive
P5CDh2 (GeneID 32625)	DRSC41329	-0.29	1.09	-0.301	inactive
CG42588 (GeneID 39457)	DRSC09820	-0.477	-1.52	-0.716	inactive
CG42588 (GeneID 39457)	DRSC22121	-0.137	1.2	0.206	inactive
CG42588 (GeneID 39457)	DRSC26914	-0.397	-0.922	0.124	inactive
CG42588 (GeneID 39457)	DRSC37828	-0.119	-2.05	0.0141	inactive
dysc (GeneID 39533)	DRSC10273	0.823	0.444	0.579	inactive
dysc (GeneID 39533)	DRSC11040	0.841	-0.473	-2.52	inactive
dysc (GeneID 39533)	DRSC22334	-0.112	-0.334	0.471	inactive
dysc (GeneID 39533)	DRSC22824	-0.18	-0.69	0.106	inactive
dysc (GeneID 39533)	DRSC23128	-1.25	0.413	0.851	inactive
dysc (GeneID 39533)	DRSC26188	-2.91	-7.58	-0.727	active
Su(z)12 (GeneID 48071)	DRSC11293	0.148	-2.08	-0.288	inactive
Su(z)12 (GeneID 48071)	DRSC26081	1.45	-1.34	2.82	inactive

9 entries from above, reformatted:
{"target": "PGAP3 (GeneID 35570)", "amplicon": "DRSC04989", "Wolbachia per cell robust z, rep 1": -3.83, "Wolbachia per cell robust z, rep 2": 0.685, "Wolbachia per cell robust z, rep 3": 0.0766, "call": "inactive"}
{"target": "BicC (GeneID 34946)", "amplicon": "DRSC02005", "Wolbachia per cell robust z, rep 1": 0.384, "Wolbachia per cell robust z, rep 2": 1.28, "Wolbachia per cell robust z, rep 3": 0.779, "call": "inactive"}
{"target": "BicC (GeneID 34946)", "amplicon": "DRSC29676", "Wolbachia per cell robust z, rep 1": -0.0332, "Wolbachia per cell robust z, rep 2": -0.0877, "Wolbachia per cell robust z, rep 3": -0.011, "call": "inactive"}
{"target": "CG17782 (GeneID 42912)", "amplicon": "DRSC23227", "Wolbachia per cell robust z, rep 1": 0.345, "Wolbachia per cell robust z, rep 2": 0.61, "Wolbachia per cell robust z, rep 3": 0.478, "call": "inactive"}
{"target": "Dnaaf6 (GeneID 39598)", "amplicon": "DRSC10473", "Wolbachia per cell robust z, rep 1": -0.588, "Wolbachia per cell robust z, rep 2": 0.548, "Wolbachia per cell robust z, rep 3": -1.08, "call": "inactive"}
{"target": "P5CDh2 (GeneID 32625)", "amplicon": "DRSC41329", "Wolbachia per cell robust z, rep 1": -0.29, "Wolbachia per cell robust z, rep 2": 1.09, "Wolbachia per cell robust z, rep 3": -0.301, "call": "inactive"}
{"target": "CG42588 (GeneID 39457)", "amplicon": "DRSC09820", "Wolbachia per cell robust z, rep 1": -0.477, "Wolbachia per cell robust z, rep 2": -1.52, "Wolbachia per cell robust z, rep 3": -0.716, "call": "inactive"}
{"target": "CG42588 (GeneID 39457)", "amplicon": "DRSC22121", "Wolbachia per cell robust z, rep 1": -0.137, "Wolbachia per cell robust z, rep 2": 1.2, "Wolbachia per cell robust z, rep 3": 0.206, "call": "inactive"}
{"target": "CG42588 (GeneID 39457)", "amplicon": "DRSC26914", "Wolbachia per cell robust z, rep 1": -0.397, "Wolbachia per cell robust z, rep 2": -0.922, "Wolbachia per cell robust z, rep 3": 0.124, "call": "inactive"}
